Measurements published in PubChem BioAssay AID687014 (The Scripps Research Institute Molecular Screening Center, 2013).
The list shows a part of the results, in another mix than the full data. Calls of active or inactive are those of the source.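 Rule for the calls: active = activation above a cutoff set at the mean of all screened compounds plus 3 SD (cut at about 10% in these data); inactive = the rest.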

tested on: Nuclear hormone receptor DAF-12 (Heterodera glycines), GAL4 fusion; test: H. glycines DAF-12 receptor agonists, primary screen, cell-based, luminescence, HEK293, GAL4 fusion, UAS-luciferase (AID 687014); details: HEK293 GAL4-hgDAF12 UAS-luciferase reporter, agonist luminescence; at 6.8 µM; hits give high values; normalized to butyrate control;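 note: 0% = DMSO wells and 100% = sodium butyrate wells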

| SMILES | activation |
| --- | --- |
| CCN1CCC(Nc2cccc(F)c2)CC1 | inactive: 1.01% |
| COc1ccc(C(c2nnnn2C2CCCCC2)N2CCC(n3c(=O)[nH]c4ccccc43)CC2)cc1 (centres undefined) | inactive: 1.39% |
| CC(C)(C)n1nnnc1C(c1ccnc2ccccc12)N1CCC(n2c(=O)[nH]c3ccccc32)CC1 (centres undefined) | inactive: 0.95% |
| Cc1ccccc1NC1(C#N)CCN(Cc2ccccc2)CC1 | inactive: -5.47% |
| CN(C)c1ccc(C(=O)NCC2(N3CCCCC3)CCCCC2)cc1 | inactive: 1% |
| Cn1c(=O)[nH]cc(N(CCCl)CCCl)c1=O | inactive: -1.48% |
| O=C(NCC1(N2CCCCC2)CCCCC1)c1ccco1 | inactive: 2.14% |
| CCC(c1nnnn1C1CCCCC1)N1CCC(n2c(=O)[nH]c3ccccc32)CC1 (centres undefined) | inactive: -1.43% |
| COc1cccc(C(c2nnnn2C2CCCCC2)N2CCC(n3c(=O)[nH]c4ccccc43)CC2)c1OC (centres undefined) | inactive: -5.42% |
| CC(=O)N(c1ccccc1)C1CCNCC1 | inactive: -0.69% |
| COc1cc(OC)cc(C(=O)NCC2(N3CCCCC3)CCCCC2)c1 | inactive: -0.38% |
| O=c1[nH]c2ccccc2n1C1CCN(C(c2ccnc3ccccc23)c2nnnn2C2CCCCC2)CC1 (centres undefined) | inactive: -2.93% |
| Fc1ccccc1NC1CCN(Cc2ccccc2)CC1 | inactive: -0.57% |
| Cc1ccc(C(=O)NCC2(N3CCCCC3)CCCCC2)o1 | inactive: 2.96% |
| Cc1ccc(NC2(C#N)CCN(Cc3ccccc3)CC2)cc1 | inactive: -0.38% |
| COc1cccc(C(c2nnnn2C2CCCC2)N2CCC(n3c(=O)[nH]c4ccccc43)CC2)c1OC (centres undefined) | inactive: 0.04% |
| COc1cc(OC)cc(C(=O)NCC2(N3CCOCC3)CCCCC2)c1 | inactive: -1.27% |
| COc1cccc(C(=O)N(c2cc(C)cc(C)c2)C2CCN(C(=O)OC(C)(C)C)CC2)c1 | inactive: -0.96% |
| CCC(CO)(C(=O)OC1CN2CCC1CC2)c1ccccc1 (centres undefined) | inactive: -0.39% |
| CN1CCC(Nc2ccc(Cl)cc2)CC1 | inactive: -2.43% |
| CN1CCC(Nc2ccc(F)c(Cl)c2)CC1 | inactive: 0.33% |
| CCOc1ncccc1C(=O)NCC1(N2CCOCC2)CCCCC1 | inactive: -3.65% |
| O=C(O)C1(Nc2ccccc2)CCN(Cc2ccccc2)CC1 | inactive: -0.55% |
| NN(c1ccccc1)C1CCN(CCc2ccccc2)CC1 | inactive: -0.55% |
| CC(C)(C)OC(=O)N1CCC(Nc2ccccc2)CC1 | inactive: -0.04% |

| SMILES | activation |
| --- | --- |
| O=c1[nH]c2ccccc2n1C1CCN(C(c2cc3ccccc3o2)c2nnnn2C2CCCC2)CC1 (centres undefined) | inactive: -2.98% |
| CCCOc1ccc(C(=O)NCC2(N(C)C)CCCCC2)cc1 | inactive: 2.15% |
| CCOC(=O)N1CCC(Nc2ccc(C)cc2)CC1 | inactive: -1.3% |
| COc1cccc(C(c2nnnn2C(C)(C)C)N2CCC(n3c(=O)[nH]c4ccccc43)CC2)c1OC (centres undefined) | inactive: -3.39% |
| N/C(=N\O)c1c(N)no[n+]1[O-] | inactive: 1.49% |
| O=c1[nH]c2ccccc2n1C1CCN(C(c2cccs2)c2nnnn2C2CCCC2)CC1 (centres undefined) | inactive: -2.9% |
| O=C(OC1CN2CCC1CC2)C1c2ccccc2C=Cc2ccccc21 (centres undefined) | inactive: 1.42% |
| CCCCn1nnnc1C(c1cccc(OC)c1OC)N1CCC(n2c(=O)[nH]c3ccccc32)CC1 (centres undefined) | inactive: -5.81% |
| COc1cc(C(=O)NCC2(N3CCOCC3)CCCCC2)cc(OC)c1C | inactive: 1.55% |
| CCCCn1nnnc1C(c1ccccc1)N1CCC(n2c(=O)[nH]c3ccccc32)CC1 (centres undefined) | inactive: -3.77% |
| O=C(NCC1(N2CCOCC2)CCCCC1)c1cc(Br)ccc1Cl | inactive: 5.07% |
| NC(=O)C1(Nc2ccccc2)CCN(Cc2ccccc2)CC1 | inactive: 2.61% |
| O=c1[nH]c2ccccc2n1C1CCN(C(c2cccs2)c2nnnn2C2CCCCC2)CC1 (centres undefined) | inactive: -5.33% |
| O=c1[nH]c2ccccc2n1C1CCN(C(c2ccnc3ccccc23)c2nnnn2C2CCCC2)CC1 (centres undefined) | inactive: -3.46% |
| COc1ccc(C(=O)NCC2(N3CCOCC3)CCCCC2)cc1OC | inactive: -2.51% |
| CN(C)C1(CNC(=O)c2cccc(C#N)c2)CCCCC1 | inactive: 0.97% |
| Cc1cc(N(CCCl)CCCl)ccc1C=O | inactive: -6.97% |
| O=c1[nH]c2ccccc2n1C1CCN(C(c2ccccc2)c2nnnn2C2CCCC2)CC1 (centres undefined) | inactive: -0.88% |
| CCCN1CCC(Nc2cc(OC)cc(OC)c2)CC1 | inactive: 2.27% |
| C/C(N)=N\P(=O)(Oc1ccccc1)Oc1ccccc1 | inactive: -1.3% |
| c1ccc(CN2CCC(Nc3ccccc3)CC2)cc1 | inactive: -2.53% |
| CC(C)(C)n1nnnc1C(c1cccc2ccccc12)N1CCC(n2c(=O)[nH]c3ccccc32)CC1 (centres undefined) | inactive: -3.51% |
| N#Cc1ccc(C(=O)NCC2(N3CCCCC3)CCCCC2)cc1 | inactive: -0.8% |
| CC(C)(C)OC(=O)N1CCC(N(C(=O)c2ccccc2)c2ccc(Cl)cc2)CC1 | inactive: 0.68% |
